Construct, isoform or probe ends are uncertain for at least one entry. Where cells or extracts were used, other partners may take part. At least one verdict rests on a figure or table, not on a statement of the authors.
System: NF-kB p50 + NF-kB p65
Assay: EMSA supershift
Details: TF-1 extract, TF-1 nuclear extract, 1x binding buffer (composition not given), 1 ug poly(dI-dC), 15 ug BSA, 20 uL, 30 min at 4 C, 4.5% native gel at 4 C, pH and salt not given, protein in an extract, label: 32P end label
[1] = TNF-a treated, complex less prominent than with 5T/3T5T
[2] = TNF-a treated, more complex than WT
[3] = untreated, more complex than WT

TCGAGCTTGCTACAAGGGACTTTCCGCTGGGGACTTTCCAGGGAGGCGTGGCC (double strand) [LAI LTR WT long probe]
binding result [1]: binds

TCGAGCTTGCTACAAGGGACTTTCCGCTGGGGACTTTCCAGGGAGGTGTGGCC (double strand) [LAI LTR 5T long probe]
binding result [2]: binds
binding result [3]: binds

TCGAGTTTGCTACAAGGGACTTTCCGCTGGGGACTTTCCAGGGAGGCGTGGCC (double strand) [LAI LTR 3T long probe]
binding result [1]: binds

TCGAGTTTGCTACAAGGGACTTTCCGCTGGGGACTTTCCAGGGAGGTGTGGCC (double strand) [LAI LTR 3T5T long probe]
binding result [2]: binds
binding result [3]: binds

From PMC4047001
